Data source: PubChem BioAssay AID624099 (ICCB-Longwood, 2012)
The whole screen tested about 21,000 reagents; shown is an unselected part. Of all reagents, 497 (2.4%) are marked active. 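Higher z means weaker E2 silencing; only reporter increases were scored, and knock-downs that hurt cell survival may mask genuine repressor factors.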 A number with no mark means an inactive call. The numbers tell different reagents against one gene apart. Reagent sequences are not shown.

Purpose: 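Host factors E2 relies on to silence an HPV18 LCR reporter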 (primary screen)
System: human C33A cervical carcinoma cells (HPV-negative) stably expressing BPV1 E2 and an HPV18 LCR luciferase reporter
Knock-down reagent: siRNA pool against human genes, 40 nM
Duration: 72 h
Detection: 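HPV18 LCR reporter light per well, converted to plate-wise z-scores that exclude control wells, and averaged over triplicate plates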
Direction: mean z-score and z-score: higher = stronger reporter signal, weaker E2 silencing
Call rule: 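Hit if mean z-score reaches 2 and two or more of three replicate z-scores also reach 2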

Target gene	pool no.	mean z-score	z-score, replicate A	z-score, replicate B	z-score, replicate C
CAVIN3	1	-0.38	-0.66	0.1	-0.58
SMUG1	1	0.43	0.22	0.37	0.7
STEAP2	1	-1.05	-0.84	-1.08	-1.23
CGA	1	-0.14	-0.06	-0.1	-0.27
MORN5	1	-0.18	-0.16	-0.08	-0.28
MT-CO2	1	0.55	0.62	0.78	0.25
ZNF8	1	0.37	0.33	0.33	0.44
B3GALT2	1	-1.58	-1.58	-1.7	-1.46
CDKN2B	1	1.32	2.22	1.07	0.65
CWC22	1	-1.54	-1.4	-1.6	-1.63
KRT6A	1	-0.63	-0.94	-0.63	-0.31
KRT6A	2	-0.55	-0.36	-0.58	-0.7
SPDYE4	1	1.05	0.81	0.87	1.47
POLR2J3	1	1	0.49	0.92	1.59
RPL29	1	-0.79	-0.92	-0.49	-0.97
KEL	1	-0.71	-0.72	-0.91	-0.49
GSDMB	1	-0.98	-1.32	-1.05	-0.56
ERVMER61-1	1	-0.73	-0.93	-0.63	-0.63
LOC388295 (retired record)	1	0.67	0.62	0.55	0.84
GASK1B	1	1.18	1.42	0.87	1.24
DICER1-AS1	1	0.95	1.16	1.02	0.67
ADAMTSL2	1	0.78	0.62	0.84	0.88
PDLIM7	1	0.55	0.49	0.68	0.48
PIEZO1	1	-1.88	-1.91	-1.9	-1.85
DPYSL5	1	1.78	1.79	1.89	1.68
TMEM144	1	0.16	0.35	0.61	-0.49
LOC729897 (retired record)	1	-0.38	-0.08	-1.09	0.04
C19orf44	1	1.29	1.21	1.49	1.17

Continued; the last 2 above are carried over.
Target gene	pool no.	mean z-score	z-score, replicate A	z-score, replicate B	z-score, replicate C
LOC729897 (retired record)	1	-0.38	-0.08	-1.09	0.04
C19orf44	1	1.29	1.21	1.49	1.17
PANK4	1	0.64	0.33	1.01	0.59
KLF7	1	-0.19	-0.32	0.1	-0.34
ARHGEF40	1	2.56 (active)	2.81	2.66	2.22
GPRIN2	1	1.64	1.32	1.71	1.91
PHKA2	1	-0.64	-0.47	-0.75	-0.7
MGAT4A	1	-0.28	-0.26	-0.37	-0.21
DHX35	1	-1.03	-1.1	-0.89	-1.1
GSDMA	1	-0.19	-0.14	0.05	-0.48
GOSR1	1	0.86	0.88	0.86	0.85
CCDC85B	1	-0.96	-0.75	-0.9	-1.23
GLTP	1	0.95	1	0.8	1.04
LOC400933 (retired record)	1	-1.12	-0.78	-1.12	-1.46
PFDN2	1	-0.34	-0.23	-0.34	-0.46
SLC25A32	1	1.12	1.11	0.86	1.4
ZNF746	1	-0.86	-1.2	-0.76	-0.6
LOC388688 (retired record)	1	-0.21	-0.24	-0.11	-0.29
DMRTA1	1	-1.27	-1.64	-1.56	-0.59
LOC149704 (retired record)	1	1.48	1.35	1.61	1.49
TGFBI	1	7.34 (active)	7.2	7.29	7.53
FGFR1OP2	1	-2.47	-2.64	-2.38	-2.4
QKI	1	-0.59	-0.67	-0.85	-0.27
SYNRG	1	0.12	0.25	0.04	0.07
SIAH1	1	-0.7	-0.79	-0.77	-0.54
TNFRSF14	1	-1.37	-1.32	-1.37	-1.42
LOC285097	1	-0.22	-0.61	0.13	-0.18
LOC391360 (retired record)	1	0.17	0.17	0.33	0
CDSN	1	0.63	0.61	0.6	0.68
DNASE2B	1	-0.34	-0.47	-0.78	0.22
LHFPL6	1	0.17	0.54	0.01	-0.06
FZD1	1	1.03	0.83	1.27	0.99
HIVEP3	1	-0.7	-0.8	-0.4	-0.91
LINC02915	1	1.53	1.91	1.06	1.6
CYC1	1	-1	-0.98	-1.08	-0.96
FIBP	1	-0.14	0.05	-0.41	-0.05
TAB2	1	-0.54	-0.84	-0.67	-0.11
VN1R5	1	-0.21	-0.39	0.06	-0.3
LOC400792 (retired record)	1	-2.91	-2.57	-2.98	-3.19
LOC400939 (retired record)	1	-0.95	-0.4	-1.13	-1.34
OR6M1	1	0.29	0.47	-0.02	0.42
SPPL2A	1	2.04 (active)	1.96	2.16	2
NCSTN	1	-0.73	-0.59	-0.85	-0.75
STRC	1	-0.46	-0.22	-0.57	-0.59
RRAGA	1	0.63	0.48	0.5	0.91
FAM168A	1	0.39	0.32	0.69	0.17
MCL1	1	-0.2	0.27	-0.01	-0.87
